Results of unrelated studies side by side (data: NIAID ChemDB).

Shared fields: tests in culture; organism: HIV-1

Rows are shuffled and stem from different studies.

SMILES	endpoint	method	strain	changes	cells	conditions	result
Cc1cc(C)cc(C(=O)c2cc(Cl)ccc2OCCN2CCC(=O)NC2=O)c1	EC50	RT activity	-	Y181C	-	pseudotyped	1.5 µM
CC(C)(C)NC(=O)[C@@H]1C[C@@H]2CCCC[C@@H]2CN1C[C@@H](O)[C@H](Cc1ccccc1)NC(=O)[C@H](CC(N)=O)NC(=O)c1ccc2ccccc2n1	EC90	plaque count / virus yield	RF	-	MT-2	-	0.004 µg/mL
CC(C)[C@H](NC(=O)c1ccc2ccccc2n1)C(=O)N[C@@H](Cc1ccccc1)[C@H](O)CN1CC[C@@H](SCc2cccnc2)C[C@H]1C(=O)NC(C)(C)C	EC50	p24	BILA2185-resistant (PR I84V)	PR-I84V	C8166	-	0.002 µM
CC(C)Nc1cccnc1N1CCN(C(=O)c2cc3cc(NS(C)(=O)=O)ccc3[nH]2)CC1	EC90	RT activity	Subtype B isolate	-	PBMC	-	0.1 µM
CC(C)(C)S(=O)(=O)C[C@@H](Cc1cccc2ccccc12)C(=O)N[C@H](C(=O)N[C@@H](Cc1ccccc1)[C@@H](O)[C@H](O)[C@H](Cc1ccccc1)NC(=O)[C@@H](NC(=O)[C@H](Cc1cccc2ccccc12)CS(=O)(=O)C(C)(C)C)C1CCCCC1)C1CCCCC1	EC50	p24	D34	-	PBLC	-	0.06 µM
Cc1ccnc2c1NC(=O)c1cccnc1N2C1CC1	EC50	p24	IIIB	-	C8166	-	0.012 µM
CC(=O)c1cccc(COC(=O)CCCC[C@@H]2SC[C@H]3[C@@H]2N(Cc2cccc(C(C)=O)c2)C(=O)N3Cc2cccc(C(C)=O)c2)c1	EC50	-	RF	-	MT-2	-	<12.5 µM
CCOP(=O)(/C=C/n1cc(C)c(=O)[nH]c1=O)OCC	EC50	-	IIIB	-	CEM + CEM-SS	-	>200 µM
O=C1N(Cc2cccc(Br)c2)[C@H]2[C@H](CS(=O)(=O)[C@H]2CCCCCO)N1Cc1cccc(Br)c1	EC90	-	RF	-	MT-2	-	80 µM
Nc1ccn([C@H]2CC[C@@H](CO)O2)c(=O)n1	EC50	cytopathic effect	AJ-05.93 (HXB2(RT-L74V))	RT-L74V	MT-4	-	3.89 µM
O=c1[nH]cnc2c1ncn2[C@H]1CC[C@@H](CO)O1	EC50	flow cytometry	IIIB/LAI	-	CEM	-	1.4 µM
Cc1cn(/C=C\P(=O)(O)O)c(=O)[nH]c1=O	EC50	-	IIIB	-	CEM + CEM-SS	-	>200 µM
Cc1ccnc2c1NC(=O)c1cccnc1N2C1CC1	EC50	RT activity	-	K103N + Y181C	-	pseudotyped	>10 µM
CC(=O)N[C@H](C(=O)N[C@@H](Cc1ccc(OCc2ccccc2)cc1)[C@@H](O)[C@H](O)[C@H](Cc1ccc(OCc2ccccc2)cc1)NC(=O)[C@@H](NC(C)=O)C(C)C)C(C)C	EC90	plaque count / virus yield	RF	-	MT-2	-	0.3 µg/mL
CC(C)CN(C[C@@H](O)[C@H](Cc1ccccc1)NC(=O)[C@H](CC(N)=O)NC(=O)c1ccc2ccccc2n1)C(=O)NC(C)(C)C	EC90	RT activity	LAI	-	PBL	-	0.3 µM
Cc1cc(C#Cc2cccc(N)c2)cc(C)c1Oc1ccnc(NC2CCN(c3cccc(C(N)=O)c3)CC2)n1	EC50	MTT	IIIB	K103N	MT-4	-	0.029 µM
Fc1cccc(F)c1[C@H]1SCc2nc3ccccc3n21	EC50	cytopathic effect / MTT	IIIB	-	MT-4	-	0.2 µg/mL
Cc1cn([C@H]2C[C@H](N=[N+]=[N-])[C@@H](CO)O2)c(=O)[nH]c1=O	EC50	p24	-	RT-P157S	CD4+HELA + HeLa	-	0.06 µM
O=C(O)/C=C/c1ccc[c]([Sb](=[O])([OH])[OH])c1	EC50	β-galactosidase	NL4-3	-	MAGI	-	0.64 µM
CCc1c(C(=O)c2cc(C)cc(C)c2)n(CC2CC=CC2)c(=O)[nH]c1=O	EC50	cytopathic effect / XTT	BaL	-	MM + M/M	clinical isolate	0.0003 µM
Cc1cn([C@H]2C[C@H](N=[N+]=[N-])[C@@H](CO)O2)c(=O)[nH]c1=O	EC50	cytopathic effect / XTT	RF	TIBO-resistant (RT Y181C)	CEM + CEM-SS	-	0.04 µM
C1CNCCNCC(CCCC2CNCCNCCCNCCNC2)CNCCNC1	EC50	cytopathic effect / MTT	MN	-	MT-4	5 d	0.35 µM
CCc1c(Sc2ccccn2)n(COCc2ccccc2)c(=O)[nH]c1=O	EC50	cytopathic effect / XTT	NL4-3	RT-L100I	CEM + CEM-SS	-	0.027 µM
Cc1cc(C#Cc2ccc(C(=O)O)cc2)cc(C)c1Oc1ccnc(Nc2ccc(C#N)cc2)n1	EC50	MTT	IIIB	RES056	MT-4	-	1.494 µM
C(CCC1CNCCNCCCNCCNC1)CCC1CNCCNCCCNCCNC1	EC50	cytopathic effect / MTT	SF2	-	MT-4	5 d	27 µM
N#Cc1ccc(Nc2nc(N)nc(Oc3c(Cl)cccc3Cl)n2)cc1	EC50	cytopathic effect / MTT	NNRTI-resistant (RT Y188L)	RT-Y188L	MT-4	-	3.2 µM
Cc1cn([C@H]2C[C@H](N=[N+]=[N-])[C@@H](CO)O2)c(=O)[nH]c1=O	EC50	cytopathic effect / MTT	RF	-	CEM + CEM-SS	-	0.0156 µM
Cc1cn([C@H]2C[C@H](N=[N+]=[N-])[C@@H](CO)O2)c(=O)[nH]c1=O	EC50	cytopathic effect / XTT	NL4-3	RT-L74V	CEM + CEM-SS	-	0.005 µM
CC(C)(C)[C@H](NC(=O)[C@H](Cc1cccc2ccccc12)CS(=O)(=O)C(C)(C)C)C(=O)N[C@@H](Cc1ccccc1)[C@@H](O)[C@H](O)[C@H](Cc1ccccc1)NC(=O)[C@@H](NC(=O)[C@H](Cc1cccc2ccccc12)CS(=O)(=O)C(C)(C)C)C(C)(C)C	EC50	p24	D34	-	PBLC	-	0.015 µM
Nc1ccn([C@H]2CC[C@@H](CO)O2)c(=O)n1	EC50	p24	Isolate 6856	-	PBMC	-	0.04 µM
Nc1ncnc2c1ncn2/C=C\P(=O)(O)O	EC50	-	IIIB	-	CEM + CEM-SS	-	>200 µM
CC(C)[C@H](NC(=O)OCc1ccccc1)C(=O)N[C@@H](Cc1ccc(O)cc1)[C@@H](O)[C@H](O)[C@H](Cc1ccc(O)cc1)NC(=O)[C@@H](NC(=O)OCc1ccccc1)C(C)C	EC50	plaque count / virus yield	RF	-	MT-2	-	<0.4 µg/mL
Cc1cn([C@H]2C[C@H](N=[N+]=[N-])[C@@H](CO)O2)c(=O)[nH]c1=O	EC50	luciferase / luminescence	BaL	-	TZM-bl	-	0.00597 µM
CC(C)(C)S(=O)(=O)C[C@@H](Cc1cccc2ccccc12)C(=O)N[C@@H](Cc1cnc[nH]1)C(=O)N[C@@H](Cc1ccccc1)[C@@H](O)[C@H](O)[C@H](Cc1ccccc1)NC(=O)[C@H](Cc1cnc[nH]1)NC(=O)[C@H](Cc1cccc2ccccc12)CS(=O)(=O)C(C)(C)C	EC50	p24	D34	-	PBLC	-	>10 µM
CC(C)(C)NC(=O)[C@@H]1CN(Cc2cccnc2)CCN1C[C@@H](O)C[C@@H](Cc1ccccc1)C(=O)N[C@H]1c2ccccc2C[C@H]1O	EC50	RT activity	LAI	-	PBL	-	0.018 µM
CC(C)[C@H](NC(=O)OCc1ccccc1)C(=O)N[C@@H](Cc1ccccc1)[C@@H](O)[C@H](O)[C@H](Cc1ccccc1)NC(=O)[C@@H](NC(=O)OCc1ccccc1)C(C)C	EC50	p24	D34	-	PBLC	-	0.1 µM
Cc1cn([C@H]2C[C@H](N=[N+]=[N-])[C@@H](CO)O2)c(=O)[nH]c1=O	EC50	cytopathic effect	BI-12.96 (HXB2(RT-A62V S68G T69D V75I F77L F116Y Q151M))	RT-A62V S68G T69D V75I F77L F116Y Q151M	MT-4	-	>5 µM
Nc1nc(=O)n([C@@H]2CS[C@H](CO)O2)cc1F	EC50	cytopathic effect / XTT	LAI Recombinant	-	MT-2	-	0.6 µM
[N-]=[N+]=N[C@]1(CO)O[C@@H](n2ccc(N)nc2=O)[C@@H](F)[C@@H]1O	EC50	luciferase	NL4-3	-	MT-2	-	0.3 nM
CC1=CC(=O)C(C)(C2=NC(C)(C)CO2)c2ccccc21	EC50	cytopathic effect / XTT	RF	RT-Y181C	CEM + CEM-SS	-	>1000 µM
Cc1cn([C@H]2CC[C@H](CO)O2)c(=O)[nH]c1=O	EC50	cytopathic effect / MTT	IIIB	-	MT-2	-	>100 µM
C1CNCCNCCCNCCNC1	EC50	cytopathic effect / MTT	IIIB	-	MT-4	-	>500 µg/mL
C1CNCCNCCCNCCNC1	EC50	cytopathic effect / MTT	IIIB	-	MT-4	-	420 µM
CC1(C)COC(C2(C)C=CCc3ccccc32)=N1	EC50	cytopathic effect / XTT	RF	-	CEM + CEM-SS	-	>434 µM
O=C1CCNCCNCCCNCCN1	EC50	cytopathic effect / MTT	IIIB	-	MT-4	-	>280 µM
Cc1cc(C#Cc2cccc(N)c2)cc(C)c1Oc1ccnc(NC2CCN(Cc3ccc(C#N)cc3)CC2)n1	EC50	MTT	IIIB	K103N	MT-4	-	>0.261 µM
O=C(O)c1cc(O)c(O)c(O)c1	EC50	syncytia	IIIB	-	MOLT-3	-	<10 µg/mL
C=C1C=C(OC)C(C)(C2=NC(C)(C)CO2)c2ccccc21	EC50	cytopathic effect / XTT	RF	-	CEM + CEM-SS	-	140 µM
O=c1[nH]c(=O)n(/C=C/P(=O)(O)O)cc1I	EC50	-	IIIB	-	CEM + CEM-SS	-	>200 µM
CC(C)(C)NC(=O)[C@@H]1C[C@@H]2CCCC[C@@H]2CN1C[C@@H](O)[C@H](Cc1ccccc1)NC(=O)[C@H](CC(N)=O)NC(=O)c1ccc2ccccc2n1	EC90	RT activity	Group O isolate	-	PBMC	-	0.026 µM
C1CNCCNCC(CCOCCOCCC2CNCCNCCCNCCNC2)CNCCNC1	EC50	cytopathic effect / MTT	MN	-	MT-4	5 d	6.3 µM
C1CNCCNCCCN[C@H]([C@H]2CNCCCNCCNCCCN2)CNC1	EC50	cytopathic effect / MTT	IIIB	-	MT-4	-	0.21 µg/mL
O=C1N(Cc2ccccc2)[C@@H]2[C@H](CCCCCO)SC[C@@H]2N1Cc1ccccc1	EC50	-	RF	-	MT-2	-	<46 µM
CC(C)c1nc(CN(C)C(=O)N[C@H](C(=O)N[C@@H](Cc2ccccc2)C[C@H](O)[C@H](Cc2ccccc2)NC(=O)OCc2cncs2)C(C)C)cs1	EC50	-	pNL4-3 luciferase reporter	-	-	-	0.0196 µM
CC(C)(C)S(=O)(=O)C[C@@H](Cc1cccc2ccccc12)C(=O)N[C@@H](CC(N)=O)C(=O)N[C@@H](Cc1ccccc1)[C@@H](O)[C@H](O)[C@H](Cc1ccccc1)NC(=O)[C@H](CC(N)=O)NC(=O)[C@H](Cc1cccc2ccccc12)CS(=O)(=O)C(C)(C)C	EC50	p24	D34	-	PBLC	-	10 µM
Cc1cn([C@H]2C[C@H](N=[N+]=[N-])[C@@H](CO)O2)c(=O)[nH]c1=O	EC50	MTT	IIIB	F227L + V106A	MT-4	-	0.004 µM
C/C(=N/O)c1cccc(CN2C(=O)N(Cc3cccc(/C(C)=N\O)c3)[C@H]3CS[C@@H](CCCCC(=O)OCc4cccc(/C(C)=N/O)c4)[C@H]32)c1	EC50	-	RF	-	MT-2	-	<67 µM
O=c1[nH]cnc2c1ncn2[C@H]1CC[C@@H](CO)O1	EC50	cytopathic effect	NI-10.93 (HXB2 RT T69N K70R Q151M)	RT-T69N K70R Q151M	MT-4	-	>100 µM

A second listing of 7 rows from above:

SMILES,endpoint,method,strain,changes,cells,conditions,result
O=C(O)c1cc(O)c(O)c(O)c1,EC50,syncytia,IIIB,-,MOLT-3,-,<10 µg/mL
Cc1cn([C@H]2C[C@H](N=[N+]=[N-])[C@@H](CO)O2)c(=O)[nH]c1=O,EC50,luciferase / luminescence,BaL,-,TZM-bl,-,0.00597 µM
Cc1cn([C@H]2C[C@H](N=[N+]=[N-])[C@@H](CO)O2)c(=O)[nH]c1=O,EC50,p24,-,RT-P157S,CD4+HELA + HeLa,-,0.06 µM
C1CNCCNCCCNCCNC1,EC50,cytopathic effect / MTT,IIIB,-,MT-4,-,420 µM
Fc1cccc(F)c1[C@H]1SCc2nc3ccccc3n21,EC50,cytopathic effect / MTT,IIIB,-,MT-4,-,0.2 µg/mL
CC1=CC(=O)C(C)(C2=NC(C)(C)CO2)c2ccccc21,EC50,cytopathic effect / XTT,RF,RT-Y181C,CEM + CEM-SS,-,>1000 µM
O=c1[nH]cnc2c1ncn2[C@H]1CC[C@@H](CO)O1,EC50,flow cytometry,IIIB/LAI,-,CEM,-,1.4 µM

Blank or dashed fields: not listed here. ECn: concentration that inhibits the pathogen or its effect by n%.